Results taken from patent US20210389324.

What was measured:
[1] = system: CFP-MYH6/7-YFP (16-residue)
[2] = system: CFP-MYH6/7-YFP (23-residue)

Recombinant MERS-CoV-2 Papain-like Protease
cleavage of CFP-YFP substrate [1]: The MERS PLpro showed minor cleavage of the cardiac myosin sequences | cleavage of CFP-YFP substrate [2]: The MERS PLpro showed minor cleavage of the cardiac myosin sequences
